Measurements published in patent publication US20140294826A1 (TUFTS UNIVERSITY, published 2014).
Where two headings read alike, the source gives them in different places.

How the values were obtained:
Shiga toxin 1 (Stx1) [1] = target: T1, Shiga toxin 1 (Stx1) (Escherichia coli O157:H7, UniProt P08026 23-315); assay: dilution ELISA on Stx1 (captured with mAb 4D3 or coated on the plate); […]
Shiga toxin 1 (Stx1) [2] = target: T1, Shiga toxin 1 (Stx1); assay: cell-based or functional assay
Shiga toxin 1 (Stx1) [3] = target: T1, Shiga toxin 1 (Stx1); assay: cell-based or functional assay; remark: listed apart in the source
Shiga toxin 1 (Stx1) [4] = target: T1, Shiga toxin 1 (Stx1); assay: dilution ELISA and SPR
Shiga toxin 1 (Stx1) [5] = target: T1, Shiga toxin 1 (Stx1); assay: dilution ELISA, HRP-anti-E-tag
Shiga toxin 1 (Stx1) [6] = target: T1, Shiga toxin 1 (Stx1); assay: SPR, Stx1 immobilised
Shiga toxin 1 (Stx1) [7] = target: T1, Shiga toxin 1 (Stx1); assay: dilution ELISA on Stx1 (captured with mAb 4D3 or coated on the plate); […]; remark: listed apart in the source

Row | Binder | EC50 (read off the curve) (Shiga toxin 1 (Stx1) [1]) [pM] | IC50, Vero cell neutralization assay (Shiga toxin 1 (Stx1) [2]) [pM] | fold neutralization potency over the pool of monomer VHHs (Shiga toxin 1 (Stx1) [3]) [fold] | fold improvement of EC50 and KD over the monomer VHHs (Shiga toxin 1 (Stx1) [4]) [fold] | EC50 (Shiga toxin 1 (Stx1) [5]) [pM] | Kd (Shiga toxin 1 (Stx1) [6]) [pM] | EC50 (read off the curve) (Shiga toxin 1 (Stx1) [7]) [pM]
1 | A5/A4 heterodimer VNA (designed binder) QVQLVESGGGLVQPGGSLRLSCAALEFTLEDYAIAWFRQAPGKEREGVSCISKSGVTKYTDSVKGRFTVARDNAKSTVILQMNNLRPEDTAVYNCAAVRPVFVDSVCTLATRYTYWGEGTQVTVSSAHHSEDPGGGGSGGGGSGGGGSQVQLVESGGGLVQPGGSLRLSCAASGFTLGSYHIGWFRHPPGKEREGTSCLSSRGDYTKYAEAVKGRFTISRDNTKSTVYLQMNNLKPEDTGIYVCAAIRPVLSDSHCTLAARYNYWGQGTQVTVSSAHHSEDP | ~400 | 300 | 100 | ~10 | 400 | 740 | 
2 | A9/A4 heterodimer VNA (designed binder) QVQLVETGGGLAQAGDSLRLSCVEPGRTLDMYAMGWIRQAPGEEREFVASISGVGGSPRYADSVKGRFTISKDNTKSTIWLQMNSLKPEDTAVYYCAAGGDIYYGGSPQWRGQGTRVTVSSEPKTPKPQGGGGSGGGGSGGGGSQVQLVESGGGLVQPGGSLRLSCAASGFTLGSYHIGWFRHPPGKEREGTSCLSSRGDYTKYAEAVKGRFTISRDNTKSTVYLQMNNLKPEDTGIYVCAAIRPVLSDSHCTLAARYNYWGQGTQVTVSSAHHSEDP |  | 50 |  |  | 500 | 500 | ~500
3 | A9/A5/D10 heterotrimer VNA (designed binder) QVQLVETGGGLAQAGDSLRLSCVEPGRTLDMYAMGWIRQAPGEEREFVASISGVGGSPRYADSVKGRFTISKDNTKSTIWLQMNSLKPEDTAVYYCAAGGDIYYGGSPQWRGQGTRVTVSSEPKTPKPQGGGGSGGGGSGGGGSQVQLVESGGGLVQPGGSLRLSCAALEFTLEDYAIAWFRQAPGKEREGVSCISKSGVTKYTDSVKGRFTVARDNAKSTVILQMNNLRPEDTAVYNCAAVRPVFVDSVCTLATRYTYWGEGTQVTVSSAHHSEDPGGGGSGGGGSGGGGSQVQLVETGGLVQAGGSLRLSCAASGVPFSDYTMAWFRQAPGKEREVVARITWRGGGPYYGNSGNGRFAISRDIAKSMVYLHMDSLKPEDTAVYYCAASRLRPALASMASDYDYWGQGTQVSVSSEPKTPKPQ |  | 80 |  |  | 300 |  | 
